Literature values as cited in patent US6809181B2, “Human beta-defensin-3 (HBD-3), a highly cationic beta-defensin antimicrobial peptide” (University of Iowa Research Foundation, priority 2000, dated 2004).

Tested on: Legionella spp.
Design: unit not given beside the values
Settings: cited from earlier work

CC[C@H]1OC(=O)[C@H](C)[C@@H](O[C@H]2C[C@@](C)(OC)[C@@H](O)[C@H](C)O2)[C@H](C)[C@@H](O[C@@H]2O[C@H](C)C[C@H](N(C)C)[C@H]2O)[C@](C)(O)C[C@@H](C)C(=O)[C@H](C)[C@@H](O)[C@]1(C)O [ERYTHROMYCIN, erythromycin]
MIC90: 0.25
